Measured values from several laboratories, pooled; numbers as filed in NIAID ChemDB.

Shared fields: whole-cell or culture tests; agent: Candida krusei; read-out: MIC

An empty or dashed field is not shown. Rows are shuffled and stem from different studies.

{"structure": "OC(CCn1ccnc1)c1ccc(Br)cc1", "strain or isolate": "RTCC 1001", "method": "broth dilution", "value": ">64 µg/mL"}
{"structure": "CO[N-]c1ncnc2c1[N+](C/C=C(\\C)CC/C=C(\\C)CC/C=C(\\C)CCC=C(C)C)=C=[N+]2C", "strain or isolate": "ATCC 6258", "method": "agar", "value": "2 µg/mL"}
{"structure": "C[C@@H]1CC(=O)N(Cc2ccccc2)C1=O", "strain or isolate": "CCC 117-2000", "method": "broth dilution / turbidity", "value": "62.5 µg/mL"}
{"structure": "CN(Cc1ccc(S(=O)(=O)Nc2ccccc2)cc1)CC(O)(Cn1cncn1)c1ccc(F)cc1F", "strain or isolate": "506", "method": "resazurin", "value": "1.6 µg/mL"}
{"structure": "CC(C)(O)c1cn(-c2ccc(Cl)cc2)nn1", "strain or isolate": "URM 4802", "method": "broth dilution", "value": "256 µg/mL"}
{"structure": "CC(C)c1ccc(NS(=O)(=O)c2ccc(CN(C)CC(O)(Cn3cncn3)c3ccc(F)cc3F)cc2)cc1", "strain or isolate": "8", "method": "resazurin", "value": "0.85 µg/mL"}
{"structure": "O=C(CCn1ccnc1)c1ccc(-c2ccccc2)cc1", "strain or isolate": "RTCC 1090", "method": "broth dilution", "value": "8 µg/mL"}
{"structure": "CN(Cc1ccc(NS(=O)(=O)c2ccccc2)cc1)CC(O)(Cn1cncn1)c1ccc(F)cc1F", "strain or isolate": "8", "method": "resazurin", "value": "1.7 µg/mL"}
{"structure": "CC1CC(=O)N(c2ccc(F)cc2)C1=O", "strain or isolate": "CCC 117-2000", "method": "broth dilution / turbidity", "value": "125 µg/mL"}
{"structure": "CCOc1ccc2nc3cc(N=C4NC(=O)/C(=C\\c5ccc([N+](=O)[O-])cc5)S4)ccc3c(N)c2c1", "method": "broth dilution", "value": "250 µg/mL"}
{"structure": "CCCCCCCCCCCCCCCC(=O)NC(CCCCN)C(=O)NC(CCCCN)C(N)=O", "strain or isolate": "4473", "method": "broth dilution", "value": "4 µg/mL"}
{"structure": "O=C(CCn1ccnc1)c1cccc2ccccc12", "strain or isolate": "RTCC 1090", "method": "broth dilution", "value": ">64 µg/mL"}
{"structure": "CC(C)NS(=O)(=O)c1ccc(CN(C)CC(O)(Cn2cncn2)c2ccc(F)cc2F)cc1", "strain or isolate": "506", "method": "resazurin", "value": "5.7 µg/mL"}
{"structure": "OC(CCn1ccnc1)c1cccc(C(O)c2ccc(Cl)cc2)c1", "strain or isolate": "RTCC 1090", "method": "broth dilution", "value": ">64 µg/mL"}
{"structure": "CC1CC(=O)N(c2ccc([N+](=O)[O-])cc2)C1=O", "strain or isolate": "CCC 117-2000", "method": "broth dilution / turbidity", "value": "125 µg/mL"}
{"structure": "O=C(CCn1ccnc1)c1cccc(C(O)c2ccc(Cl)c(Cl)c2)c1", "strain or isolate": "RTCC 1090", "method": "broth dilution", "value": "64 µg/mL"}
{"structure": "C[C@@H]1CC(=O)N(CCCCc2ccccc2)C1=O", "strain or isolate": "CCC 117-2000", "method": "broth dilution / turbidity", "value": "62.5 µg/mL"}
{"structure": "Ic1ccc(-c2csc(N/N=C\\c3cccc4ccccc34)n2)cc1", "strain or isolate": "Clinical isolates", "setting": "24 h", "value": "2 µg/mL"}
{"structure": "CN(Cc1ccc(S(=O)(=O)N2CCOCC2)cc1)CC(O)(Cn1cncn1)c1ccc(F)cc1F", "strain or isolate": "506", "method": "resazurin", "value": "13.4 µg/mL"}
{"structure": "CONc1nc([O-])nc2c1[N+](C/C=C(\\C)CC/C=C(\\C)CC/C=C(\\C)CCC=C(C)C)=C=[N+]2C", "strain or isolate": "ATCC 6258", "method": "agar", "value": ">16 µg/mL"}
{"structure": "C[C@H]1[C@H](O)[C@@H](C)/C=C/C=C/C=C/C=C/C=C/C=C/C=C/[C@H](O[C@@H]2O[C@H](C)[C@@H](O)[C@H](N)[C@@H]2O)C[C@@H]2O[C@](O)(C[C@@H](O)C[C@@H](O)CC[C@H](O)[C@@H](O)C[C@@H](O)CC(=O)O[C@H]1C)C[C@H](O)[C@H]2C(=O)O", "strain or isolate": "CCC 117-2000", "method": "broth dilution / turbidity", "value": "0.49 µg/mL"}
{"structure": "CCOc1nc([N-]OC)c2c(n1)[N+](C)=C=[N+]2C/C=C(\\C)CC/C=C(\\C)CC/C=C(\\C)CCC=C(C)C", "strain or isolate": "ATCC 6258", "method": "agar", "value": "4 µg/mL"}
{"structure": "O=C(CCn1ccnc1)c1ccc(Cl)cc1", "strain or isolate": "RTCC 1001", "method": "broth dilution", "value": ">64 µg/mL"}

The first 2 rows once more:

structure,strain or isolate,method,setting,value
OC(CCn1ccnc1)c1ccc(Br)cc1,RTCC 1001,broth dilution,,>64 µg/mL
CO[N-]c1ncnc2c1[N+](C/C=C(\C)CC/C=C(\C)CC/C=C(\C)CCC=C(C)C)=C=[N+]2C,ATCC 6258,agar,,2 µg/mL